Pooled drug test results. Numbers come from NIAID ChemDB, via PubChem.

Shared fields: whole-cell or culture tests; species: Candida albicans; read-out: zone

Neighbouring rows are from separate reports.

compound,strain or isolate,method,tested at,result
CC1(C)CC(=O)c2cc(C3CC(c4ccc(Cl)cc4)=NN3C(N)=S)[nH]c2C1,ATCC 2091,-,1000 µg/mL,23 mm
CS(=O)(=O)c1nc(N)c(C#N)c(-c2ccc(O)cc2)n1,MTCC 227,agar diffusion,25 µg/mL,17 mm
NS(=O)(=O)c1ccc(C2C=C(c3ccc(Cl)cc3)CC2c2ccccc2)cc1,ATCC 2091,-,1000 µg/mL,23 mm
COc1ccc(-c2nc(S(C)(=O)=O)nc(N)c2C#N)cc1,MTCC 227,agar diffusion,25 µg/mL,17 mm
Fc1cccc(F)c1/C=N/n1c(C23CC4CC(CC(C4)C2)C3)nn(CN2CCN(c3cccc(C(F)(F)F)c3)CC2)c1=S,IFO 3007,agar diffusion,200 µg/disc,<10 mm
CSC1=NC(/C=C/c2ccccc2)C(C#N)=C(N)N1,MTCC 227,agar diffusion,50 µg/mL,18 mm
O=C(NN=Cc1ccc([N+](=O)[O-])cc1)c1snnc1C(F)(F)F,MTCC 227,agar diffusion / agar,100 µg/mL,0 mm
O=C1CSC(c2ccc(O)cc2)N1Nc1nc2ccccc2n2nnnc12,ATCC 2091,agar diffusion,50 µg/mL,11 mm
CS(=O)(=O)c1nc(N)c(C#N)c(-c2ccc(Cl)cc2)n1,MTCC 227,agar diffusion,100 µg/mL,19 mm
CN(C)c1ccc(C=NNC(=O)c2snnc2C(F)(F)F)cc1,MTCC 227,agar diffusion / agar,150 µg/mL,0 mm
COc1ccc(C2SCC(=O)N2Nc2nc3ccccc3n3nnnc23)cc1,ATCC 2091,agar diffusion,100 µg/mL,10 mm
CSC1=NC(c2ccc(O)cc2)C(C#N)=C(N)N1,MTCC 227,agar diffusion,25 µg/mL,17 mm
Cc1ccc(/C=N/n2c(C34CC5CC(CC(C5)C3)C4)n[nH]c2=S)cc1,IFO 3007,agar diffusion,200 µg/disc,<10 mm
CC(C)(C)c1cc(-c2nnc(CN3CCC(n4nc5ccccc5n4)CC3)o2)cc(C(C)(C)C)c1,-,-,1200 µg/mL,29.85 mm
Oc1ccc(/C=N/n2c(C34CC5CC(CC(C5)C3)C4)n[nH]c2=S)cc1,IFO 3007,agar diffusion,200 µg/disc,<10 mm
CCOC(=O)c1sc(NC(=O)CC#N)c(C#N)c1C,-,agar diffusion / agar,1000 µg/mL,0 mm
CSC1=NC(c2cccc([N+](=O)[O-])c2)C(C#N)=C(N)N1,MTCC 227,agar diffusion,25 µg/mL,17 mm
O=C(NN=Cc1ccco1)c1snnc1C(F)(F)F,MTCC 227,agar diffusion / agar,100 µg/mL,0 mm
COc1ccc(C2=CC(c3ccc(S(N)(=O)=O)cc3)C(c3ccccc3)C2)cc1,ATCC 2091,-,1000 µg/mL,22 mm
O=C1CSC(c2ccc(F)cc2)N1Nc1nc2ccccc2n2nnnc12,ATCC 2091,agar diffusion,100 µg/mL,11 mm
C#Cc1c(-c2ccc(OC)cc2)c(C#N)c2nc(=O)c3c(-c4ccccc4)csc3n2c1N,-,agar diffusion / agar,1000 µg/mL,0 mm
O=[N+]([O-])c1ccc(-c2nnc(CN3CCC(n4nc5ccccc5n4)CC3)o2)cc1Cl,-,-,1200 µg/mL,23.05 mm
C#Cc1c(-c2ccc(Cl)cc2)c(C#N)c2nc(=O)c3c(C(=O)OCC)c(C)sc3n2c1N,-,agar diffusion / agar,1000 µg/mL,0 mm
NNC(=O)Cc1nnc2n1-c1nc3ccccc3nc1NN2,ATCC 2091,-,1000 µg/mL,22 mm
O=C(NN=C1CCCCC1)c1snnc1C(F)(F)F,MTCC 227,agar diffusion / agar,150 µg/mL,7 mm
CCOC(=O)C1CCN(Cn2nc(C34CC5CC(CC(C5)C3)C4)n(/N=C/c3c(F)cccc3Cl)c2=S)CC1,IFO 3007,agar diffusion,200 µg/disc,<10 mm
CC(=NNC(=O)c1snnc1C(F)(F)F)c1ccc(Br)cc1Br,MTCC 227,agar diffusion / agar,100 µg/mL,11 mm
C#Cc1c(-c2ccc(C)cc2)c(C#N)c2nc(=O)c3c(-c4ccccc4)csc3n2c1N,-,agar diffusion / agar,1000 µg/mL,0 mm
O=C1C(Cl)C(c2ccc(O)cc2)N1Nc1nc2ccccc2n2nnnc12,ATCC 2091,agar diffusion,100 µg/mL,12 mm
CCN1CCN(Cn2nc(C34CC5CC(CC(C5)C3)C4)n(/N=C/c3c(Cl)cccc3Cl)c2=S)CC1,IFO 3007,agar diffusion,200 µg/disc,<10 mm
O=C(NN=Cc1ccc(Br)cc1)c1snnc1C(F)(F)F,MTCC 227,agar diffusion / agar,150 µg/mL,0 mm
COc1cccc(-c2nnc(CN3CCC(n4nc5ccccc5n4)CC3)o2)c1,-,-,1200 µg/mL,17.25 mm
N#Cc1c(-c2ccccc2)csc1NC(=O)C1C=NN=C1N,-,agar diffusion / agar,1000 µg/mL,4 mm
CS(=O)(=O)c1nc(N)c(C#N)c(-c2ccccc2O)n1,MTCC 227,agar diffusion,100 µg/mL,19 mm
Fc1ccc(N2CCN(Cn3nc(C45CC6CC(CC(C6)C4)C5)n(/N=C/c4c(F)cccc4F)c3=S)CC2)cc1,IFO 3007,agar diffusion,200 µg/disc,<10 mm
CSC1=NC(c2ccccc2O)C(C#N)=C(N)N1,MTCC 227,agar diffusion,25 µg/mL,17 mm
CC1=NN(c2nnc3c(n2)Nc2ccccc2N3)C(=O)C1,ATCC 2091,-,1000 µg/mL,24 mm
CS(=O)(=O)c1nc(N)c(C#N)c(-c2ccccc2[N+](=O)[O-])n1,MTCC 227,agar diffusion,50 µg/mL,18 mm
Brc1ccccc1-c1nnc(CN2CCC(n3nc4ccccc4n3)CC2)o1,-,-,1200 µg/mL,16.75 mm
CC1(C)CC(=O)c2cc(C3CC(c4ccc(Br)cc4)=NO3)[nH]c2C1,ATCC 2091,-,1000 µg/mL,24 mm
C/C=C/C1=CC2=CC(=O)[C@](C)(OC(=O)c3c(C)cc(O)cc3OC)C(=O)C2=CO1,ATCC 64548,agar diffusion,20 µg/disc,0 mm
O=C1CSC(c2ccccc2)N1c1nnc2c(n1)[nH]c1ccccc12,ATCC 2091,-,1000 µg/mL,21 mm
N#Cc1cc(C#N)c2[nH]c(=O)c3c(-c4ccc(Cl)cc4)csc3[n+]2c1N,-,agar diffusion / agar,1000 µg/mL,0 mm

Repeating the first 6 entries:

{"compound": "CC1(C)CC(=O)c2cc(C3CC(c4ccc(Cl)cc4)=NN3C(N)=S)[nH]c2C1", "strain or isolate": "ATCC 2091", "tested at": "1000 µg/mL", "result": "23 mm"}
{"compound": "CS(=O)(=O)c1nc(N)c(C#N)c(-c2ccc(O)cc2)n1", "strain or isolate": "MTCC 227", "method": "agar diffusion", "tested at": "25 µg/mL", "result": "17 mm"}
{"compound": "NS(=O)(=O)c1ccc(C2C=C(c3ccc(Cl)cc3)CC2c2ccccc2)cc1", "strain or isolate": "ATCC 2091", "tested at": "1000 µg/mL", "result": "23 mm"}
{"compound": "COc1ccc(-c2nc(S(C)(=O)=O)nc(N)c2C#N)cc1", "strain or isolate": "MTCC 227", "method": "agar diffusion", "tested at": "25 µg/mL", "result": "17 mm"}
{"compound": "Fc1cccc(F)c1/C=N/n1c(C23CC4CC(CC(C4)C2)C3)nn(CN2CCN(c3cccc(C(F)(F)F)c3)CC2)c1=S", "strain or isolate": "IFO 3007", "method": "agar diffusion", "tested at": "200 µg/disc", "result": "<10 mm"}
{"compound": "CSC1=NC(/C=C/c2ccccc2)C(C#N)=C(N)N1", "strain or isolate": "MTCC 227", "method": "agar diffusion", "tested at": "50 µg/mL", "result": "18 mm"}

An empty or dashed field is not shown. Zone: diameter of growth inhibition.